What was measured:
[1] = tested on: T. cruzi epimastigotes A1 strain; test: Anti-Trypanosoma cruzi activity, epimastigotes A1 strain (MTT); format: cell-based; details: Selectivity index (CC50/IC50), J774.2 vs A1
[2] = tested on: T. cruzi epimastigotes NINOA strain; test: Anti-Trypanosoma cruzi activity, epimastigotes NINOA strain (MTT); format: cell-based; details: Selectivity index (CC50/IC50), J774.2 vs NINOA

Row | Structure (SMILES) | T. cruzi SI A1 [1] | T. cruzi SI NINOA [2]
1 | OCc1ccccc1 [Compound 1, benzyl alcohol] | 0.4 | 0.1
2 | Cc1ccc(CO)cc1 [Compound 2, 4-methylbenzyl alcohol] | 4.0 | 3.9
3 | Cc1ccccc1CO [Compound 3, 2-methylbenzyl alcohol] | 0.3 | 0.3
4 | OCc1ccc2ccccc2c1 [Compound 5, 2-naphtalenemethanol] | 1.0 | 1.6
5 | OCCc1ccccc1 [Compound 7, phenethyl alcohol] | 0.4 | 1.9
6 | COc1ccc(CCO)cc1 [Compound 8, 4-methoxyphenethyl alcohol] | 1.0 | 1.0
7 | OCC=Cc1ccccc1 [Compound 9, cinnamyl alcohol] | 2.1 | 0.2
8 | CC(C)=CCO [Compound 10, prenol] | 1.0 | 7.3
9 | CC(C)=CCCC(C)CCO (stereo not drawn) [Compound 11, β-citronellol] | 9.3 | 3.7
10 | CC(C)=CCC/C(C)=C/CO [Compound 12, geraniol] | 1.6 | 4.9
11 | CC(C)[C@H]1CC[C@H](C)C[C@@H]1O [Compound 14, l-(-)-menthol] | 1.0 | 8.2
12 | C=C(C)[C@H]1CC=C(CO)CC1 [Compound 15] | 1.0 | 1.0
13 | OC1CCCC1 [Compound 18, cyclopentyl alcohol] | 2.3 | 0.1

Source: article PMC12388504, “Antiparasitic Effect of Polyphenols and Terpenes from Natural Products Against Trypanosoma cruzi and Leishmania mexicana” (Metabolites, 2025)
